Results on one molecule are retold here after PMC1208959 (Virology Journal, 2005).

Protein sequences, listed by entry. Tags and fused reporters are not part of them. Residues count along the entry.
UniProt Q9IH63, 27-109 partner limits assumed: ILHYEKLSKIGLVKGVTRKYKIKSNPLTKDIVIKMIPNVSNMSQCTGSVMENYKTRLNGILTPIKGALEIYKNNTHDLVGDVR
UniProt Q9IH63, 110-546 limits assumed: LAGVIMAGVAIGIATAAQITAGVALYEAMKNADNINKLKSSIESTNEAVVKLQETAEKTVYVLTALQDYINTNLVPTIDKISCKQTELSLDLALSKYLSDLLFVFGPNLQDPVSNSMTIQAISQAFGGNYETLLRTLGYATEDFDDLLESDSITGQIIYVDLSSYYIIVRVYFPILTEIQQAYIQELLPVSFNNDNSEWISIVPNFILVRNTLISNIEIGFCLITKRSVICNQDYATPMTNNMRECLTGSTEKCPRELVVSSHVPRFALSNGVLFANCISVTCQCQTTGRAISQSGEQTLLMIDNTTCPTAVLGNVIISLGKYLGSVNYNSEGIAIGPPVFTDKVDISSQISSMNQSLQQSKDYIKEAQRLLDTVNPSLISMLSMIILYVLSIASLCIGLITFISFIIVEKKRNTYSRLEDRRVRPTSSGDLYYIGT
UniProt O89342, 27-109 partner limits assumed: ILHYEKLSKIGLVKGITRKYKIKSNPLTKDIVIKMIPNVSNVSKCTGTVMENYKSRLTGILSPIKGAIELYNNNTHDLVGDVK
UniProt O89342, 110-546 limits assumed: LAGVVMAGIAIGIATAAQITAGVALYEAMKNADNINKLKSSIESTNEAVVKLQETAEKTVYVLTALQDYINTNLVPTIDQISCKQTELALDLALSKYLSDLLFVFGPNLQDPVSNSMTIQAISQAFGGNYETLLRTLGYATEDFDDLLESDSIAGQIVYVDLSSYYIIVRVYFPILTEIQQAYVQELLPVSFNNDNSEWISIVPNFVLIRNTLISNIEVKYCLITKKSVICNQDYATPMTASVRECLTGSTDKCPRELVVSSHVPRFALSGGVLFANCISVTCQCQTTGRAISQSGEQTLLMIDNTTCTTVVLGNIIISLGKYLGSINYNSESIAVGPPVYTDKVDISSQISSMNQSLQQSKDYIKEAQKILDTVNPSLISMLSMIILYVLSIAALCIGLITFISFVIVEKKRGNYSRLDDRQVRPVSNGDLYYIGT

The structures appear in SMILES notation. pIC50: −log10 of the molar value. Where “and” joins values, the source holds several entries; their conditions need not be identical. Equal entries are not always repeated.

The target in assay [1] is NiV F and NiV G glycoproteins (Nipah virus, UniProt Q9IH63).
For assay [2], the target named is HeV F and HeV G glycoproteins (Hendra virus, UniProt O89342).

Usually pIC50 stands for the IC50 on a negative log10 scale, so that one unit is a factor of ten. Lower therefore signals a large IC50. With `CC[C@H](C)[C@H](NC(=O)[C@H](Cc1ccc(O)cc1)NC(=O)[C@H](CC(=O)O)NC(=O)[C@H](CCCCN)NC(=O)[C@H](CO)NC(=O)[C@H](CCC(N)=O)NC(=O)[C@H](CCC(N)=O)NC(=O)[C@H](CC(C)C)NC(=O)[C@H](CO)NC(=O)[C@H](CCC(N)=O)NC(=O)[C@H](CC(N)=O)NC(=O)[C@H](CCSC)NC(=O)[C@H](CO)NC(=O)[C@H](CO)NC(=O)[C@@H](NC(=O)[C@H](CCC(N)=O)NC(=O)[C@H](CO)NC(=O)[C@H](CO)NC(=O)[C@@H](NC(=O)[C@H](CC(=O)O)NC(=O)[C@@H](NC(=O)[C@H](CCCCN)NC(C)=O)C(C)C)[C@@H](C)CC)[C@@H](C)CC)C(=O)N[C@@H](CCCCN)C(=O)N[C@@H](CCC(=O)O)C(=O)N[C@@H](C)C(=O)N[C@@H](CCC(N)=O)C(=O)N[C@@H](CCCNC(=N)N)C(=O)N[C@@H](CC(C)C)C(=O)N[C@@H](CC(C)C)C(=O)N[C@@H](CC(=O)O)C(=O)N[C@H](C(=O)N[C@H](C(=O)N[C@@H](CC(N)=O)C(=O)N1CCC[C@H]1C(=O)N[C@@H](CO)C(=O)N[C@@H](CC(C)C)C(N)=O)C(C)C)[C@@H](C)O`, the pIC50 in assay [1] was 7.88 and 7.79 and 7.75; in assay [2], 7.75 and 7.62 and 7.56.
